In US20030091594A1 one finds Kd, koff and kon data, which are given here for one substance.

In assay [1] the target is CD4-induced (CD4i) monoclonal antibody 17b. Kind of assay: SPR (BIACORE 2000), MAb 17b amine-coupled to CM5 chip, gp120 premixed with saturating sCD4 as analyte, 25 C. For orientation: SPR reads the build-up and loss of mass on a sensor chip optically.
Assay [2] has as its target CD4-induced (CD4i) monoclonal antibody 48d. Kind of assay: SPR (BIACORE 2000), MAb 48d amine-coupled to CM5 chip, gp120 premixed with saturating sCD4 as analyte, 25 C.

What is called Kd is a measure of binding affinity in units of concentration. Low values mean a tighter complex, high ones a looser complex. In general, koff refers to the rate constant with which the complex falls apart. A higher koff goes with a short-lived complex. What is called kon is a measure of how fast the partners come together. As to “8x gp120 pre-incubated with soluble CD4 (from UniProt P01730 26-394)”, the dissociation constant Kd in assay [1] is 4.5 nM. Moreover, in assay [2], the off-rate (koff) came to 0.0006 s⁻¹ and the on-rate constant (kon) amounted to 300000 M⁻¹ s⁻¹.
